The test system of the assay is AncLDH*. The conditions noted are these: 200 uM NADH, 50 mM Tris pH 7.5, 50 mM KCl, 25 C.

Each structure is given as a SMILES string.

In the case of `CC(=O)C(=O)O` [pyruvate], the KM entry is “AncLDH* is a strict LDH”.
